The results in this text go back to ChEMBL document CHEMBL3808367, “Novel HIV-1 Non-nucleoside Reverse Transcriptase Inhibitor Agents: Optimization of Diarylanilines with High Potency against Wild-Type and Rilpivirine-Resistant E138K Mutant Virus” (J Med Chem, 2016).

The subject of experiment [1] is Human immunodeficiency virus 1. The experiment is described as follows: Resistance index, ratio of EC50 for […] resistant HIV1 A17 harboring reverse transcriptase K103N/Y181C double mutant infected in human MT2 cells to EC50 for HIV1 3B infected in human MT2 cells. It counts as functional.
In experiment [2] the test system is Human immunodeficiency virus 1. The experiment is described as follows: Resistance index, ratio of EC50 for rilpivirine resistant HIV1 harboring reverse transcriptase E138K mutant infected in human TZM-bl cells to EC50 for HIV1 NL4-3 infected in human TZM-bl cells. It counts as functional.

For `Cc1cc(CCC#N)cc(C)c1Oc1cc(Nc2ccc(C#N)cc2)c(N)cc1Br`, the “Ratio EC50” value is reported as 26 in experiment [1] and 20 in experiment [2].
